Anti-infective test results gathered from many reports (values: NIAID ChemDB through PubChem).

All rows: cytotoxicity tests; cell line: CEM; endpoint: CC50

CCn is the concentration with n% toxicity to the cells. Lines come from different laboratories, so protocols vary. An empty or dashed field is not shown.

smiles	read by	value
Cc1ccc(C)c(CS(=O)(=O)c2cccc(C)[n+]2[O-])c1	cell count	≥100 µg/mL
O=S(=O)(Nc1nnc2c3ccccc3cnn12)c1ccc(F)cc1S		>200 µM
Cc1cc(C)cc(Sc2c(C(C)C)c(=O)[nH]c(=O)n2CC2CC=CC2)c1		>20 µM
Cc1cc(S(=O)(=O)Nc2nnc3c4ccccc4ccn23)c(S)cc1Cl		>200 µM
Cc1ccc(CS(=O)(=O)c2cccc[n+]2[O-])cc1[N+](=O)[O-]	cell count	5.8 µg/mL
CC1(CO)CCC(Cn2nnc3c(=O)[nH]c(N)nc32)C1(C)C		156 µg/mL
COC1=C(C2=C(Br)C(=O)c3ccccc3C2=O)C(=O)c2ccccc2C1=O	MTT	5.4 µM
CC[C@@H](O)C1=C[C@@H](n2cnc3c(N)ncnc32)[C@H](O)[C@@H]1O		34 µg/mL
CC1(CO)CCC(Cn2cnc3c(Cl)nc(N)nc32)C1(C)C		17.5 µg/mL
CC(C)(C)c1ccccc1Sc1c(O)cc(-c2ccc(OCc3cccnc3)cc2)oc1=O		16.5 µM
CC[C@H](O)C1=C[C@@H](n2cnc3c(N)ncnc32)[C@H](O)[C@@H]1O		>200 µg/mL
O=C(NCc1ccccc1)c1ccccc1SSc1ccccc1C(=O)NCc1ccccc1		10 µM
Cc1cc(C)c(CS(=O)c2cccc[n+]2[O-])c(C)c1		35 µg/mL
Cc1cc(C)cc(C(=O)c2c(C(C)C)c(=O)[nH]c(=O)n2CCC2=CCCC2)c1		39.5 µM
Cn1cc(NC(=O)[C@H]2CCC(N)=N2)cc1C(=O)NCCC(=N)N		>127 µM
CC(C)CS[C@@H]1C=C[C@H](n2cnc3c(N)ncnc32)C1		18 µg/mL
Cc1cc(C)cc(Sc2c(C(C)C)c(=O)[nH]c(=O)n2CC2CC2)c1		12.8 µM
Cc1ccccc1C(C(N)=O)S(=O)c1cccc[n+]1[O-]	cell count	>100 µg/mL
COC1=C(C2=C(Cl)C(=O)c3ccccc3C2=O)C(=O)c2ccc(OC)cc2C1=O	MTT	2.9 µM
COc1ccc(C)cc1CS(=O)(=O)c1cccc[n+]1[O-]		70 µg/mL
Cn1cc(NC(=O)c2cc(NC(=O)CCCCCCCCCC(=O)Nc3cc(C(=O)Nc4cc(C(=O)NCCC(N)=[NH2+])n(C)c4)n(C)c3)cn2C)cc1C(=O)NCCC(N)=[NH2+]		57 µM
NC1=C(C2=C(Cl)C(=O)c3ccccc3C2=O)C(=O)c2ccccc2C1=O	MTT	5.7 µM
Cc1ccc(C)c(CS(=O)c2cccc[n+]2[O-])c1	cell count	48 µg/mL
CCN1CCC(O)(/C=C/c2ccc(Cl)cc2)C(C(=O)/C=C/c2ccc(Cl)cc2)C1		9.4 µg/mL
CCCCCCCCCC(=O)Oc1ccc(COP(=O)(OCc2ccc(OC(=O)CCCCCCCCC)cc2)OP(=O)(O)OC[C@@H]2C=C[C@H](n3cc(C)c(=O)[nH]c3=O)O2)cc1		62 µM
COC(=O)[C@H](C)NP(=O)(OCC1C/C1=C/n1cnc2c(=O)[nH]c(N)nc21)Oc1ccccc1		>50 µM
O=S(=O)(Nc1nnc2c3ccccc3ccn12)c1ccc(F)cc1S		109 µM
Cc1ccc(C)c(C(CC(C)C)S(=O)(=O)c2cccc[n+]2[O-])c1	cell count	6.2 µg/mL
CCc1c(C(=O)c2cc(C)cc(C)c2)n(CC2CC2)c(=O)[nH]c1=O		>1220 µM
COc1nc(N)c(N=C[C@@H](O)[C@@H](O)[C@H](O)CO)c(=O)n1C	XTT	>830 µM
Cc1ccc(NC(=O)c2ccccc2SSc2ccccc2C(=O)Nc2ccc(C)cc2)cc1		28 µM
C=CSC(NC(=O)[C@H](Cc1ccccc1)NS(=O)(=O)N1CCOCC1)C(=O)N[C@@H](CC1CCCCC1)[C@@H](O)C[C@H](C(=O)NCCCC)C(C)C		>13 µM
COC(=O)[C@H](C)NP(=O)(OC[C@H]1C/C1=C/n1cnc2c(OC)nc(N)nc21)Oc1ccccc1		4.4 µM
O=S(=O)(Cc1ccccc1Cl)c1cccc[n+]1[O-]	cell count	19 µg/mL
Cc1cc(C)cc(Oc2c(C(C)C)c(=O)[nH]c(=O)n2CC2CCC2)c1		17.2 µM
Cc1cc[n+]([O-])c(S(=O)(=O)Cc2ccc(Cl)cc2)c1	cell count	20 µg/mL
COc1ccc2c(c1)C(=O)C(Cl)=C(C1=C(Cl)C(=O)c3ccccc3C1=O)C2=O	MTT	12 µM
Nc1ccc([C@H]2C[C@H](O)[C@@H](CO)O2)c(F)c1		>500 µM
CCc1c(Sc2cc(C)cc(C)c2)n(CC2CCC2)c(=O)[nH]c1=O		991 µM
COc1cc(CS(=O)c2cccc[n+]2[O-])cc(OC)c1OC	cell count	40 µg/mL
Cn1cc(NC(=O)c2cc(NC(=O)CCCCCC(=O)Nc3cc(C(=O)Nc4cc(C(=O)NCCC(N)=[NH2+])n(C)c4)n(C)c3)cn2C)cc1C(=O)NCCC(N)=[NH2+]		64.8 µM
COC1=C(C2=C(C3=C(O)C(=O)c4ccccc4C3=O)C(=O)c3ccccc3C2=O)C(=O)c2ccc3c(c2C1=O)C=CC(C)(C)O3	MTT	14.2 µM
CCOc1ccccc1CS(=O)(=O)c1cccc[n+]1[O-]	cell count	37 µg/mL
COc1nc2nc([C@H](O)[C@@H](O)CO)cnc2c(=O)n1C	XTT	>220 µM
CCCCCCCCCCCCCC(=O)Oc1ccc(COP(=O)(OCc2ccc(OC(=O)CCCCCCCCCCCCC)cc2)OP(=O)(O)OC[C@@H]2C=C[C@H](n3cc(C)c(=O)[nH]c3=O)O2)cc1		134 µM
[O-][n+]1c(Cl)cccc1SCc1ccccc1	cell count	48 µg/mL
Cc1cn([C@H]2C=C[C@@H](CO)O2)c(=O)[nH]c1=O		>250 µM
O=C1C(=O)c2ccccc2C(O)=C1C1=C(Br)C(=O)c2ccccc2C1=O	MTT	5.2 µM
Cc1c(Cl)ccc(C(C)S(=O)c2cccc[n+]2[O-])c1Cl	cell count	0.59 µg/mL
CCc1c(Sc2cc(C)cc(C)c2)n(CCC2C=CCC2)c(=O)[nH]c1=O		6.8 µM
CCOc1ccccc1CS(=O)c1cccc[n+]1[O-]	cell count	69 µg/mL
CC1(CO)CCC(Cn2cnc3c(N)nc(N)nc32)C1(C)C		28 µg/mL
COc1ccc(CSc2cc(C(C)(C)C)cc[n+]2[O-])cc1	cell count	48 µg/mL
CC1(C)C=Cc2c(ccc3c2C(=O)C(=O)C(C2=C(I)C(=O)c4ccccc4C2=O)=C3O)O1	MTT	6.8 µM
CC(c1ccc(S(C)(=O)=O)cc1)S(=O)c1cccc[n+]1[O-]	cell count	3.8 µg/mL
S=c1[nH]c(=S)c2c3c(sc2[nH]1)CCCC3		>100 µM
COc1cccnc1SCc1ccccc1	cell count	87 µg/mL
C#C[C@@H](O)C1=C[C@@H](n2cnc3c(N)ncnc32)[C@H](O)[C@@H]1O		0.45 µg/mL
Cc1cccc(CS(=O)c2cccc[n+]2[O-])c1	cell count	37 µg/mL
N#Cc1ccc(NC(=O)c2ccccc2SSc2ccccc2C(=O)Nc2ccc(C#N)cc2)cc1		30 µM
COc1ccc(Br)c(CS(=O)(=O)c2cccc[n+]2[O-])c1	cell count	15 µg/mL
Cc1c(C)c(S(=O)(=O)NC(N)=NCCCC(N)C(=O)N2CCCC2C#N)c(C)c2c1C(C)(C)OC(C)(C)C2(C)C		>50 µM
Cc1ccc(C)c(C(C)S(=O)(=O)c2cccc(Cl)[n+]2[O-])c1	cell count	4.5 µg/mL
CCc1c(Oc2cc(C)cc(C)c2)n(CC2CC2)c(=O)[nH]c1=O		>1270 µM
Nc1ccn([C@H]2CS[C@@H](CO)O2)c(=O)n1		2 µM
CCCCCCCCOc1ccc(/C=C(/C#N)Sc2cccc[n+]2[O-])cc1	cell count	≥100 µg/mL

The first 9 rows once more:

smiles	read by	value
Cc1ccc(C)c(CS(=O)(=O)c2cccc(C)[n+]2[O-])c1	cell count	≥100 µg/mL
O=S(=O)(Nc1nnc2c3ccccc3cnn12)c1ccc(F)cc1S		>200 µM
Cc1cc(C)cc(Sc2c(C(C)C)c(=O)[nH]c(=O)n2CC2CC=CC2)c1		>20 µM
Cc1cc(S(=O)(=O)Nc2nnc3c4ccccc4ccn23)c(S)cc1Cl		>200 µM
Cc1ccc(CS(=O)(=O)c2cccc[n+]2[O-])cc1[N+](=O)[O-]	cell count	5.8 µg/mL
CC1(CO)CCC(Cn2nnc3c(=O)[nH]c(N)nc32)C1(C)C		156 µg/mL
COC1=C(C2=C(Br)C(=O)c3ccccc3C2=O)C(=O)c2ccccc2C1=O	MTT	5.4 µM
CC[C@@H](O)C1=C[C@@H](n2cnc3c(N)ncnc32)[C@H](O)[C@@H]1O		34 µg/mL
CC1(CO)CCC(Cn2cnc3c(Cl)nc(N)nc32)C1(C)C		17.5 µg/mL